Converted amounts (≈) assume the structure as drawn.
How the values were obtained:
[1] = test system: Mycobacterium avium; assay: Antimycobacterial activity against Mycobacterium avium CNCTC My 330/88 after 21 days by micromethod; format: functional
[2] = test system: Mycobacterium avium; assay: Antimycobacterial activity against Mycobacterium avium CNCTC My 330/88 after 14 days by micromethod; format: functional

SMILES | MIC [1] [µM] | MIC [2] [µM]
NNC(=O)c1cc([N+](=O)[O-])cc([N+](=O)[O-])c1 | 250 (≈ 56.5 µg/mL) | 125 (≈ 28.3 µg/mL)
O=[N+]([O-])c1ccc(CSc2nnc(-c3cc([N+](=O)[O-])cc([N+](=O)[O-])c3)o2)cc1 | 2 (≈ 0.807 µg/mL) | 2 (≈ 0.807 µg/mL)
